Results published in publication PMC7865074.

biological target: full-length (FL) NS5 protein (wt PBM) of West Nile virus (West Nile virus); assay: split reporter (BiFC, NanoBiT); N2H split-NanoLuc in HEK-293T cells; full-length NS5 with 257 single PDZ domains; read-out NLR with NS5 minus NLR with NS5ΔPBM, three experiments; hits > 0.25

Q: For “Disks large homolog 1, PDZ domain 1 (N2H construct) (from UniProt Q12959 224-310) (domain or fragment)”, which NLR(NS5) - NLR(NS5ΔPBM) is on record?
A: 0.82

Q: Which NLR(NS5) - NLR(NS5ΔPBM) does the source give for “Disks large homolog 2, PDZ domain 1 (N2H construct) (from UniProt Q15700 98-184) (domain or fragment)” here?
A: 1

Q: Which NLR(NS5) - NLR(NS5ΔPBM) does the source give for “Sorting nexin-27, PDZ domain (N2H construct) (from UniProt Q96L92 43-136) (domain or fragment)” here?
A: 2.74
